Assays:
Cowpox virus [1] = assay: Antiviral activity against Cowpox virus Brighton infected in HFF assessed as reduction of plaque formation after 3 days; type: functional, organism-based
Vaccinia virus [2] = assay: Antiviral activity against Vaccinia virus WR infected in BALB/c mouse assessed as reduction of spleen viral titer at 15 mg/kg, ip qd for 5 days administered 24 hrs after infection; conditions: route intraperitoneal, strain WR
Vaccinia virus [3] = assay: Antiviral activity against Vaccinia virus WR infected in BALB/c mouse assessed as reduction of liver viral titer at 15 mg/kg, ip qd for 5 days administered 24 hrs after infection; conditions: route intraperitoneal
Vaccinia virus [4] = assay: Antiviral activity against Vaccinia virus WR infected in BALB/c mouse assessed as reduction of lung viral titer at 15 mg/kg, ip qd for 5 days administered 24 hrs after infection; conditions: route intraperitoneal
Vaccinia virus [5] = assay: Antiviral activity against Vaccinia virus WR infected in BALB/c mouse assessed as reduction of liver viral titer at 15 mg/kg, po bid for 5 days administered 24 hrs after infection
Vaccinia virus [6] = assay: Antiviral activity against Vaccinia virus WR infected in BALB/c mouse assessed as reduction of kidney viral titer at 15 mg/kg, po bid for 5 days administered 24 hrs after infection; conditions: strain WR
Vaccinia virus [7] = assay: Antiviral activity against Vaccinia virus WR infected in BALB/c mouse assessed as reduction of kidney viral titer at 15 mg/kg, ip qd for 5 days administered 24 hrs after infection; conditions: route intraperitoneal, strain WR
Vaccinia virus [8] = assay: Antiviral activity against Vaccinia virus WR infected in BALB/c mouse assessed as reduction of lung viral titer at 15 mg/kg, po bid for 5 days administered 24 hrs after infection
Vaccinia virus [9] = assay: Antiviral activity against Vaccinia virus WR infected in BALB/c mouse assessed as reduction of spleen viral titer at 15 mg/kg, po bid for 5 days administered 24 hrs after infection; conditions: strain WR
Cowpox virus [10] = assay: Antiviral activity against Cowpox virus Brighton infected in BALB/c mouse assessed as reduction of spleen viral titer at 15 mg/kg, ip qd for 5 days administered 24 hrs after infection; conditions: route intraperitoneal, strain Brighton
Cowpox virus [11] = assay: Antiviral activity against Cowpox virus Brighton infected in BALB/c mouse assessed as reduction of liver viral titer at 15 mg/kg, ip qd for 5 days administered 24 hrs after infection; conditions: route intraperitoneal
Cowpox virus [12] = assay: Antiviral activity against Cowpox virus Brighton infected in BALB/c mouse assessed as reduction of liver viral titer at 15 mg/kg, po bid for 5 days administered 24 hrs after infection
Cowpox virus [13] = assay: Antiviral activity against Cowpox virus Brighton infected in BALB/c mouse assessed as reduction of spleen viral titer at 15 mg/kg, po bid for 5 days administered 24 hrs after infection; conditions: strain Brighton
Cowpox virus [14] = assay: Antiviral activity against Cowpox virus Brighton infected in BALB/c mouse assessed as reduction of kidney viral titer at 15 mg/kg, po bid for 5 days administered 24 hrs after infection; conditions: strain Brighton
Cowpox virus [15] = assay: Antiviral activity against Cowpox virus Brighton infected in BALB/c mouse assessed as reduction of kidney viral titer at 15 mg/kg, ip qd for 5 days administered 24 hrs after infection; conditions: route intraperitoneal, strain Brighton

Nc1ccn(C[C@@H](CO)OCP(=O)(O)O)c(=O)n1
EC50 (Cowpox virus [1]): 29 µM

Nc1ccn(C[C@@H](CO)OCP(=O)(O)O)c(=O)n1.O.O
fold change (FC) (Vaccinia virus [2]): 5 | fold change (FC) (Vaccinia virus [3]): 5 | fold change (FC) (Vaccinia virus [4]): 1 | fold change (FC) (Vaccinia virus [5]): 5 | fold change (FC) (Vaccinia virus [6]): 5 | fold change (FC) (Vaccinia virus [7]): 5 | fold change (FC) (Vaccinia virus [8]): 1 | fold change (FC) (Vaccinia virus [9]): 5

O=c1[nH]c(=O)n([C@H]2C[C@H](O)[C@@H](CO)S2)cc1I
fold change (FC) (Vaccinia virus [2]): 5 | fold change (FC) (Vaccinia virus [3]): 5 | fold change (FC) (Vaccinia virus [4]): 1 | fold change (FC) (Cowpox virus [10]): 2 | EC50 (Cowpox virus [1]): 0.1 µM | fold change (FC) (Cowpox virus [11]): 2 | fold change (FC) (Cowpox virus [12]): 2 | fold change (FC) (Cowpox virus [13]): 2 | fold change (FC) (Vaccinia virus [5]): 5 | fold change (FC) (Vaccinia virus [6]): 5 | fold change (FC) (Cowpox virus [14]): 2 | fold change (FC) (Vaccinia virus [7]): 5 | fold change (FC) (Vaccinia virus [8]): 1 | fold change (FC) (Vaccinia virus [9]): 5 | fold change (FC) (Cowpox virus [15]): 2
